{"source": "patent US20110190379A1", "about": "(priority 2008, published 2011)", "test_system": "F. graminearum", "experiment": "Arabidopsis detached leaf infection bioassay with chemical feeding treatments", "conditions": "Col-0, etr1-1 and ein2-1 with versus without enhanced ethylene; data not shown"}
{"smiles": "C=C", "note": "[ethylene]", "values": [{"measurement": "disease severity in Col-0 and ethylene insensitive mutants", "result": "enhanced disease severity to a similar extent"}]}
